From ChEMBL document CHEMBL4043104, “Conjugates of salicylaldoximes and peripheral site ligands: Novel efficient nonquaternary reactivators for nerve agent-inhibited acetylcholinesterase” (2017)

Amino acid sequences for entries named in this document (tags omitted). Residues count along the entry.
UniProt P22303, 32-614 limits assumed: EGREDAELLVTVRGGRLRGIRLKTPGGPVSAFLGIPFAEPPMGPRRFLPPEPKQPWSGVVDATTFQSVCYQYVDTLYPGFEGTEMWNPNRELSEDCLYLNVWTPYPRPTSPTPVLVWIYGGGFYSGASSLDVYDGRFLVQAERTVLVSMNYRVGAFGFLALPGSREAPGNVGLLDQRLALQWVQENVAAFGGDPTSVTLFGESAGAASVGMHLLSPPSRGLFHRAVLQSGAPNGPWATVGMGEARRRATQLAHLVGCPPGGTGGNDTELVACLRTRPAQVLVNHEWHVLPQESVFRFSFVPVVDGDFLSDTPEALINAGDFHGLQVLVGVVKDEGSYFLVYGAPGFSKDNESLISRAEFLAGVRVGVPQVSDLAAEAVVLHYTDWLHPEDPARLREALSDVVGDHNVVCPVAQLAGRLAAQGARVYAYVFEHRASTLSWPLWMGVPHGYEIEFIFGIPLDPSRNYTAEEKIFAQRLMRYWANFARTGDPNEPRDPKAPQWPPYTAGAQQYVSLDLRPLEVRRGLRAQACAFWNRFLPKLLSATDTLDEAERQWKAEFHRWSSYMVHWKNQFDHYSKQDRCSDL

Biological target: Acetylcholinesterase (Homo sapiens) (UniProt P22303)
Assay: Reactivation of sarin-induced inhibition of human AChE assessed as reactivation rate constant using acetylthiocholine as substrate preincubated for 30 mins followed by substrate addition measured at 5 to 180 mins by Ellman's method

SMILES | Kr [×10⁻³ /min]
COc1cc2c(cc1OC)CN(CC1CCN(Cc3cc(F)cc(/C=N/O)c3O)CC1)CC2 | 41
COc1cc2c(cc1OC)CN(CC1CCN(Cc3cc(Cl)cc(/C=N/O)c3O)CC1)CC2 | 127
COc1cc2c(cc1OC)CN(CC1CCN(Cc3cc(Br)cc(/C=N/O)c3O)CC1)CC2 | 107
COc1cc(/C=N/O)c(O)c(CN2CCC(CN3CCc4cc(OC)c(OC)cc4C3)CC2)c1 | 91
